The values below come from PMC11126104 (Toxins, 2024).

The test system of this data set is Caco-2/HT-29MTX monolayers.

In the case of aflatoxin B1 [AFB1], the “FA (calculated human fraction absorbed)” value was 98.8%.
